Experimental findings from article PMC9550806, “Structural insights into PA3488-mediated inactivation of Pseudomonas aeruginosa PldA” (2022) are described below.

The target of one assay is Pseudomonas aeruginosa PA3488 (20-376, without the N-terminal 19 signal peptide) (P. aeruginosa). The assay is described as follows: SPR. (In general: SPR reads the build-up and loss of mass on a sensor chip optically.)
The Kd is the constant that tells how readily two partners part at equilibrium. Read a high Kd as lower affinity. For orientation: koff means the rate constant with which the complex falls apart. Usually kon stands for the rate constant with which the complex forms. In turn, “PldA^D643A (from UniProt Q9HYC2 1-1099) (enzyme)” showed a Kd of 0.846 nM, a koff of 1.83e-05 s⁻¹ and a kon of 21700 M⁻¹ s⁻¹.

“PldA^D643A-R820A-R969A (from UniProt Q9HYC2 1-1099) (enzyme)” yielded a Kd of 0.741 nM, a koff of 1.78e-06 s⁻¹ and a kon of 2400 M⁻¹ s⁻¹.

In turn, “PldA^R820A (from UniProt Q9HYC2 1-1099) (enzyme)” came in with a Kd of 0.0244 nM, a koff of 5.19e-08 s⁻¹ and a kon of 2130 M⁻¹ s⁻¹.

Turning to “PldA^R969A (from UniProt Q9HYC2 1-1099) (enzyme)”, the Kd was found to be 6.42 nM, the koff came to 7.57e-05 s⁻¹ and the kon amounted to 11800 M⁻¹ s⁻¹.

The substance “Pseudomonas aeruginosa PldA, full length (PldA^FL) (from UniProt Q9HYC2 1-1099) (enzyme)” showed a Kd of 0.0307 nM, a koff of 1.83e-05 s⁻¹ and a kon of 596000 M⁻¹ s⁻¹.

Another assay has as its target Pseudomonas aeruginosa PldA, full length (PldA^FL) (P. aeruginosa) (UniProt Q9HYC2). The assay is described as follows: SPR.
PA3488^D118A (natural protein): the Kd came out at 0.019 nM, the koff is 6.25e-06 s⁻¹ and the on-rate (kon) was found to be 330000 M⁻¹ s⁻¹.

In the case of PA3488^D273A (natural protein), the Kd came to 17.3 nM, the koff amounted to 0.00012 s⁻¹ and the association rate constant (kon) is 6920 M⁻¹ s⁻¹.

The substance PA3488^R50A (natural protein) gave a dissociation constant (Kd) of 1.03 nM, a koff of 0.000214 s⁻¹ and a kon of 208000 M⁻¹ s⁻¹.

The substance “PA3488^R50A-D118A-D273A (natural protein)” displayed a Kd of 14.1 nM, an off-rate (koff) of 0.00382 s⁻¹ and a kon of 271000 M⁻¹ s⁻¹.
